Data from article PMC10974995 (Pathogens, 2024).

How the values were obtained:
[1] = system: PK-15 (porcine kidney epithelial cells) and/or FFL (feline fetus lung cells); experiment: Inhibition of cell proliferation (ICP) assay, PK-15 and/or FFL; settings: for In Vitro ICP 2d, toxic (+) / nontoxic (−), microbial metabolites: mycotoxins and fungal metabolites; for EC50 In Vitro ICP 2d: pure substances, PK-15 and/or FFL, triplicate
boar sperm = experiment: Boar sperm motility inhibition (BSMI) assay, ex vivo; settings: for Ex Vivo BSMI 1–3d, toxic (+) / nontoxic (−), microbial metabolites: mycotoxins and fungal metabolites; for EC50 Ex Vivo BSMI 1–3d: pure substances, 1–3 d of exposure, triplicate

Row | Molecule | In Vitro ICP 2d, toxic (+) / nontoxic (−), microbial metabolites [1] | EC50 In Vitro ICP 2d [1] [μg mL^–1] | Ex Vivo BSMI 1–3d, toxic (+) / nontoxic (−), microbial metabolites (boar sperm) | EC50 Ex Vivo BSMI 1–3d (boar sperm) [μg mL^–1]
1 | CC1=C[C@H]2O[C@@H]3C[C@H]4OC(=O)/C=C\C=C\C(=O)OCC[C@@H](C)[C@H](O)C(=O)OC[C@@]2(CC1)[C@]4(C)[C@]31CO1 | (+) (For the microbial metabolites, EC50 < 5 µg mL^−1 and <10 µg mL^−1 were considered as toxic in the BSMI and ICP assays, respectively) | 0.0006 | (−) | 5
2 | CC1=C[C@H]2O[C@@H]3C[C@H]4OC(=O)/C=C\C=C\[C@H]([C@@H](C)O)OCC[C@@H](C)[C@H](O)C(=O)OC[C@@]2(CC1)[C@]4(C)[C@]31CO1 | (+) (For the microbial metabolites, EC50 < 5 µg mL^−1 and <10 µg mL^−1 were considered as toxic in the BSMI and ICP assays, respectively) | 0.0007 | (−) | > 1
3 | CC(=O)OC[C@]12C[C@H](OC(=O)CC(C)C)C(C)=C[C@H]1O[C@@H]1[C@H](O)[C@@H](OC(C)=O)[C@@]2(C)[C@]12CO2 | (+) (For the microbial metabolites, EC50 < 5 µg mL^−1 and <10 µg mL^−1 were considered as toxic in the BSMI and ICP assays, respectively) | 0.0023 | (−) | –
4 | Satratoxin G | (+) (For the microbial metabolites, EC50 < 5 µg mL^−1 and <10 µg mL^−1 were considered as toxic in the BSMI and ICP assays, respectively) | 0.0009 | (−) | 5
